In patent US20250313611A1 (VIB VZW, published 2025):

Experiments:
Assay in all cases: cell-based or functional assay
[1] = biological target: SARS-COV-2 spike (614G-del18) (SARS-CoV-2)
[2] = biological target: SARS-COV-2 Omicron XBB.1.5 spike (pCG1, del18; XBB with F486P) (SARS-CoV-2 Omicron XBB.1.5)
[3] = biological target: T1, spike protein of authentic SARS-COV-2 614G virus (SARS-CoV-2 614G)
[4] = biological target: T1, spike protein of authentic SARS-COV-2 …; remark: listed apart in the source
[5] = biological target: T1, spike protein of authentic SARS-COV-2 …; remark: listed apart in the source

B1: huR3DC23-Fc_LS (Fc fusion)
chain: DVQLVESGGGLVQPGGSLRLSCAVSGRIFSTYTMGWFRQAPGKEREFVAAVRWGAGTIYYADSVKGRFTISRDNAKNTVYLQMNSLRPEDTAVYYCGAAYVSKANYGSLWYQDSRRYDYWGQGTLVTVSSGGGGSGGGGS[left out - human IgG1 Fc with changes]
**Q.** B1 was tested. Which “mean IC50 (ng/ml), VSV pseudovirus neutralisation” value [1] did it give?
**A.** 0.8 ng/mL

**Q.** And the “mean IC50 (ng/ml), VSV pseudovirus neutralisation” value [2]?
**A.** 0.51 ng/mL

**Q.** And the “GM IC50 in ng/mL (GSD factor), live virus microneutralisation” value [3]?
**A.** 2.5 ng/mL

**Q.** And the “geometric mean IC50 (ng/mL), live virus microneutralisation” value [4]?
**A.** 3.7 ng/mL

**Q.** And the “geometric mean IC50 (ng/mL), live virus method” value [5]?
**A.** 3.7 ng/mL
